First the molecules themselves.
B1: BD55-3597 (protein)
chain 1: QVQLVESGGGVVQPGRSLRFSCAASGFTFSSYGMHWVRQAPGKGLEWVAVTSYDGKNKYYADSVKGRFTISRDNSKNTVYLQMNSLRAEDTAVYYCAKGSGSGWYEIFQFSMDVWGKGTTVTVSS
chain 2: QSVLTQPPSVSGAPGQKVTISCTGSSSNIGSGYDVHWYQQLPGAAPKLLIHGNSNRPSGVPDRFSGSKSGTSASLAITGLQAEDEADYYCQSYDSTLSLWVFGGGTKLTVL
B2: BD55-3525 (protein)
chain 1: EVQVVESGGGLVKPGGSLRLSCAGSGFTFNYAWMNWVRQAPGKGLEWVGRIKSETGGGTTDYAAPVRGRFTISRDDSKDTVFLQMNSLKTEDTAVYYCTTEATVTSWDAFDVWGQGTLVTVST
chain 2: QSVLTQPPSASGTSGQRVTISCSGSSSNIGSNTVNWYQQIPRRAPKLLIYRNNQRPSGVPDRFSASKSGTSASLAISGLHSEDEADYYCAAWDDRLNGFVFGTGTKVTVL
B3: BD55-3484 (protein)
chain 1: EVRLAESGGGLVKPGGSLRLSCAASGFSFSDAWMSWVRQAPGKGLEWVGHIKSEISGGTTDYAVPVKGRFTISRDDSKNTLYLQMNSLKTEDTAMYYCVSSDIWRFYDSGMDVWGHGTTVTVSS
chain 2: DIQMTQSPSTLSASVGDRVTITCRASQSISIWLAWYQQKAGKAPKLLVYKASRLESGVPSRFSGSGSGTEFTLTISSLQPDDFAIYYCQQYDSYPLTFGGGTKVQIK
B4: BD55-4343 (protein)
chain 1: QVQLEESGPGLVKPSQILSLTCTVSGGAISSVSYCWSWIRQPAGRGLEWIGHVCSSDNINSNPSLKSRVTISVDTSKNQFSLKMTSVTAADTAVYYCARSTGDYEFDYWGQGTLVTVSS
chain 2: DIQMTQSPPTLSASVGDRVTITCRASQSIGRWLAWYQQKPGKAPKLLIYKASILESGVPSRFSGSGSGTEFTLSFSSLQPDDFATYYCQQYNSYPPTFGGGTKVDIK
B5: BD55-4356 (protein)
chain 1: B4 chain 1 with T23S, A28S, R45K, V53M, D57G, I59T, N60D, T70S, V73L, T85S
chain 2: B4 chain 2 with G30S, K42R, S93N, D105E
B6: BD55-3546 (protein)
chain 1: QVQLVQSGSALKRPGASVKLSCKASGYTFINYAIHWVRQAPGQGLQWMGWINPNTGIPTYAQGFTGRFVFSLDTSVSTAYLQLSSLKIEDTAVYYCARDQDLYERAFDIWGQGTMVTVSS
chain 2: DVVLTQSPATLSVSPGERATLSCRASHNVGTSLAWYQQKPGQAPRLLIHGVSTRATGVPARFSDSGSGTEFTLTISSLQSEDLAVYYCQQYNYWPLTFGGGTKVEIK
B7: BD55-4344 (protein)
chain 1: EVQLLESGGGLVQPGGSLRLSCAASGFTFDHYAMSWVRQAPGKGLEWVSAISGSGGSTSYSDSVKGRFTISRDNSKNTLFLQMNSLRAEDTAVYYCAKRSGWARRAPGGGDYWGQGTLVTVSS
chain 2: DIQMTQSPSSLSASVGDRVTITCQASQDISNYLNWYQQKPGKAPKLLIYDASNLETGVPSRFSGSGSGTDFTFTISSLQPEDIATYFCQQYDSLPESFGPGTKMDIK
B8: BD55-4348 (protein)
chain 1: QVQLVESGGGVVQPGRSLRLSCAASGFTFRSYSMQWVRQAPGEGLEWVAILSYDGIIEYYSDSVKGRFTVSRDNSKNTLYLQMNSLRTEDTAIYYCARGSSSWSEDNWFDPWGQGTLVTVSS
chain 2: SYVLTQPPSVSVAPGKTARITCGGDNIGSYSVHWYQQKPGQAPVLVVYDDNDRPSGIPERFSGSNSGNTATLTIGRVEAGDEADYYCQVWDSRSDHYVFGIGTKVTVL
B9: BD55-4345 (protein)
chain 1: QVQLVQSGAEVKKPGSSVKVSCKASAGTFSSNAISWVRQAPGQGLEWLGRIIPIFGTSTYAQNFQGRITMTADESTGTAYMEMSRLTSEDTAVYYCARAGVLGGAGSYYVVDYWGQGSLVTVSS
chain 2: NFMLTQPHSVSESPGKTVTISCTRSRGSIDSEYVQWYQQRPGSAPTTVIYEHNQTPSGVPDRFSGSIDTSSNSASLTISGLKTEDEAHYYCQSFDGSSQAWVFGGGTKLTVL
B10: BD55-3832 (protein)
chain 1: QVQLVQSGAEVKKPGASVKVSCKASGYTFTRFYMHWVRQAPGQGLEWMGIIDPSGGSTTYAQKFQGRVTMTRDTSTSTVYMELSSLRSEDTAVYYCARDYYDSSGYYRFDPWGQGTLVTVSS
chain 2: DIQMTQSPSSLSASVGDRVTIACRASQSISSYLNWYQQKPGKAPKLLIYAASTLQSGVPSRFSGSGSGTDFTLTISTLQPDDFATYYCQQSYSYPRGTFGQGTKVAIK
B11: BD55-3741 (protein)
chain 1: VQVVQSGAEVKKPGESLKISCKVSGYSFSIYWIAWVRQMSGKGLEWMGIIYPGDSDTRYSPSFQGQVTISADKSISTAYLQWSSLKASDTAKYYCAAVGGINAAFDIWGRGTMVTVSS
chain 2: DIVMTQSPDSLAVSLGERATINCKSSQSVLHRSSNKNFVAWYQHKPGQPPALLFYWASTRETGVPDRFSGSGSGTDFTLTISSLQAEDVAVYYCQQYYTTPYTFGQGTKLEIK
B12: BD55-3611 (protein)
chain 1: EVQLVQSGAEVKKPGESLKISCKGSGYMFKSYWIGWVRQMPGKGLEWMGLIYPDDSDTKYSPSFQGHVTISADKSISTAYLQWSSLKASDTAMYYCASVNNYYFGYFDLWGPGTPVTVSS
chain 2: DVQMTQSPSSLSASVGDRVTITCRASQGIRSDVGWYQQKPGKPPKRLIYAASSLENGVPSRFSGSGSGTAFTLTISSLQPEDFATYYCLQQSTYPPTFGQGTKLEIK

From the supplement of paper PMC9931576 come the findings set out here.

Positions count from the first letter of the chain named. Human monoclonal antibodies against the spike receptor-binding domain (heavy:light variable regions). IC50 against pseudoviruses bearing the spike of naturally observed variants; lower = stronger; >10 µg/ml means not reached at the top dose. No active / inactive call. The stated detection limit is 0.0005 µg/ml; values near or below 0.001 µg/ml lie at the floor of the assay.

The first experiment has as its target SARS-CoV-2 Omicron BA.1 spike pseudovirus. The experiment in a line: pseudovirus neutralization IC50; higher = weaker neutralization. The method, then: (§1)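 Single-round VSV luciferase pseudovirus mixed with antibody dilutions for 1 h and put on Huh-7 cells for about a day; IC50 from the dose curve.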
Turning to B1, the “pseudovirus neutralization IC50” value worked out at 2.45 µg/mL.
Take B2: the “pseudovirus neutralization IC50” value is 5.44 µg/mL.
The same measure, in the same setting: then B3, with 2.31 µg/mL; and B4, with 2.33 µg/mL.
For B5, the “pseudovirus neutralization IC50” value was more than 10 µg/mL.
For the molecule B6, the “pseudovirus neutralization IC50” value was found to be 0.0058 µg/mL.
On to B7, for which the “pseudovirus neutralization IC50” value was more than 10 µg/mL.
For the molecule B8, the “pseudovirus neutralization IC50” value is more than 10 µg/mL.
Turning to B9, the “pseudovirus neutralization IC50” value is more than 10 µg/mL.
In the case of B10, the “pseudovirus neutralization IC50” value is more than 10 µg/mL.
Regarding B11, the “pseudovirus neutralization IC50” value was more than 10 µg/mL.
B12: the “pseudovirus neutralization IC50” value is 3.65 µg/mL.

For a further experiment, the target named is SARS-CoV-2 Omicron BA.2 spike pseudovirus. Described as above. Here is the method: as §1
Turning to B1, the “pseudovirus neutralization IC50” value came to 1.96 µg/mL.
Regarding B2, the “pseudovirus neutralization IC50” value turned out to be 6.97 µg/mL.
As to B3, the “pseudovirus neutralization IC50” value was 2.7 µg/mL.
For B4, the “pseudovirus neutralization IC50” value is more than 10 µg/mL.
Turning to B5, the “pseudovirus neutralization IC50” value is more than 10 µg/mL.
Regarding B6, the “pseudovirus neutralization IC50” value worked out at 0.0359 µg/mL.
Same read-out and setting: the result for B7 reads more than 10 µg/mL; that for B8, more than 10 µg/mL.
With B9, the “pseudovirus neutralization IC50” value is more than 10 µg/mL.
For B10, the “pseudovirus neutralization IC50” value is more than 10 µg/mL.
With B11, the “pseudovirus neutralization IC50” value is more than 10 µg/mL.
For B12, the “pseudovirus neutralization IC50” value was 3.02 µg/mL.

In a further experiment the target is SARS-CoV-2 Omicron BA.2.75 spike pseudovirus. The description is as above. Here is the method: as §1
On to B1, for which the “pseudovirus neutralization IC50” value was 4.32 µg/mL.
Still for that read-out and setting: then B2, with 4.48 µg/mL; and B3, with 2.82 µg/mL; and B4, with more than 10 µg/mL.
B5: the “pseudovirus neutralization IC50” value was more than 10 µg/mL.
Take B6: the “pseudovirus neutralization IC50” value is 3.06 µg/mL.
In the case of B7, the “pseudovirus neutralization IC50” value was more than 10 µg/mL.
The same measure, in the same setting: the result for B8 reads more than 10 µg/mL; that for B9, more than 10 µg/mL; that for B10, more than 10 µg/mL.
Regarding B11, the “pseudovirus neutralization IC50” value was more than 10 µg/mL.
In the case of B12, the “pseudovirus neutralization IC50” value amounted to 3.92 µg/mL.

A further experiment has as its target SARS-CoV-2 Omicron BA.5 spike pseudovirus. Described as above. Here is the method:
as §1
For the molecule B1, the “pseudovirus neutralization IC50” value was determined as 3.15 µg/mL.
Take B2: the “pseudovirus neutralization IC50” value is more than 10 µg/mL.
With B3, the “pseudovirus neutralization IC50” value came to 2.79 µg/mL.
Still for that read-out and setting: then B4, with more than 10 µg/mL.
On to B5, for which the “pseudovirus neutralization IC50” value is more than 10 µg/mL.
On to B6, for which the “pseudovirus neutralization IC50” value stood at 0.0958 µg/mL.
For the molecule B7, the “pseudovirus neutralization IC50” value is more than 10 µg/mL.
For the molecule B8, the “pseudovirus neutralization IC50” value was more than 10 µg/mL.
Regarding B9, the “pseudovirus neutralization IC50” value was more than 10 µg/mL.
Still for that read-out and setting: the result for B10 reads more than 10 µg/mL; that for B11, more than 10 µg/mL; that for B12, 3.55 µg/mL.

The next experiment concerns the target SARS-CoV-2 Omicron BQ.1.1 spike pseudovirus. The description is as above. Here is the method: as §1
B1: the “pseudovirus neutralization IC50” value was found to be 3.57 µg/mL.
B2: the “pseudovirus neutralization IC50” value was more than 10 µg/mL.
B3: the “pseudovirus neutralization IC50” value is more than 10 µg/mL.
With B4, the “pseudovirus neutralization IC50” value was more than 10 µg/mL.
On the same count and under the same terms, the result for B5 reads more than 10 µg/mL.
As to B6, the “pseudovirus neutralization IC50” value was more than 10 µg/mL.
In the case of B7, the “pseudovirus neutralization IC50” value was more than 10 µg/mL.
Consider B8, for which the “pseudovirus neutralization IC50” value was more than 10 µg/mL.
On to B9, for which the “pseudovirus neutralization IC50” value was more than 10 µg/mL.
Consider B10, for which the “pseudovirus neutralization IC50” value was more than 10 µg/mL.
Still for that read-out and setting: the result for B11 reads more than 10 µg/mL; that for B12, 2.39 µg/mL.

Another experiment addresses SARS-CoV-2 Omicron XBB spike pseudovirus. Described as above. The method, then: as §1
Turning to B1, the “pseudovirus neutralization IC50” value was found to be 4.95 µg/mL.
B2: the “pseudovirus neutralization IC50” value was more than 10 µg/mL.
Consider B3, for which the “pseudovirus neutralization IC50” value was more than 10 µg/mL.
Turning to B4, the “pseudovirus neutralization IC50” value was more than 10 µg/mL.
For the molecule B5, the “pseudovirus neutralization IC50” value was more than 10 µg/mL.
In the case of B6, the “pseudovirus neutralization IC50” value was more than 10 µg/mL.
Take B7: the “pseudovirus neutralization IC50” value was more than 10 µg/mL.
As to B8, the “pseudovirus neutralization IC50” value was more than 10 µg/mL.
Consider B9, for which the “pseudovirus neutralization IC50” value is more than 10 µg/mL.
On the same count and under the same terms, the result for B10 reads more than 10 µg/mL.
The same measure, in the same setting: the result for B11 reads more than 10 µg/mL.
Regarding B12, the “pseudovirus neutralization IC50” value turned out to be 3.57 µg/mL.

For another experiment, the target named is SARS-CoV-2 early D614G spike pseudovirus. Described as above. The method, then:
as §1
On to B1, for which the “pseudovirus neutralization IC50” value came to 1.06 µg/mL.
As for B2, the “pseudovirus neutralization IC50” value worked out at 1.56 µg/mL.
Take B3: the “pseudovirus neutralization IC50” value was 8.28 µg/mL.
On the same count and under the same terms, then B4, with 2.51 µg/mL.
Same read-out and setting: the result for B5 reads more than 10 µg/mL.
With B6, the “pseudovirus neutralization IC50” value turned out to be 0.00113 µg/mL.
Take B7: the “pseudovirus neutralization IC50” value stood at 5.8 µg/mL.
With B8, the “pseudovirus neutralization IC50” value worked out at 0.302 µg/mL.
Consider B9, for which the “pseudovirus neutralization IC50” value turned out to be 0.245 µg/mL.
Same read-out and setting: then B10, with 5.73 µg/mL; and B11, with more than 10 µg/mL.
On to B12, for which the “pseudovirus neutralization IC50” value amounted to 3.04 µg/mL.
